Results of unrelated studies side by side (data: NIAID ChemDB).

Shared fields: growth or infection tests; agent: HIV-2; cells: MT-4; endpoint: EC50

ECn: concentration that inhibits the pathogen or its effect by n%.

| compound | strain | read by | value |
|---|---|---|---|
| Cc1nc(CC(=O)NN)nn1C | ROD | cytopathic effect | >94.8 µg/mL |
| O=c1[nH]c(=O)n(Cc2cn(COCCO)nn2)cc1Br | ROD | cytopathic effect | >100 µg/mL |
| Cc1cc(C#N)cc(C)c1Oc1nc(Nc2ccc(NS(=O)(=O)c3ccc4oc(=O)ccc4c3)cc2)nc2ccsc12 | ROD | MTT | >209.8 µM |
| O=C1Nc2ccc(F)cc2[C@@]12C[C@@H]2c1ccccc1 | ROD | MTT | >10.85 µg/mL |
| Cc1cc(C#N)cc(C)c1Oc1nc(Nc2ccc(C#N)cc2)nc(N)c1Br | ROD | MTT | >4.585 µM |
| COc1ccc(S(=O)(=O)Nc2nnc(C(CC(C)C)NS(=O)(=O)c3ccc(C)cc3)s2)cc1 | ROD | MTT | >61.05 µM |
| C#CCn1cnc2c(=O)[nH]c(NC(C)=O)nc21 | ROD | cytopathic effect | >100 µg/mL |
| Cc1ccnc2c1NC(=O)c1cccnc1N2C1CC1 | ROD | MTT | 4 µM |
| NC1=NS(=O)(=O)N(COCCO)C=C1 |  | cytopathic effect / MTT | >400 µg/mL |
| O=c1ccn(Cc2cn(COCCO)nn2)c(=O)[nH]1 | ROD | cytopathic effect | >100 µg/mL |
| C#CCOCN1C=CC(=O)N(COCC#C)S1(=O)=O |  | cytopathic effect / MTT | >400 µg/mL |
| CCc1nc([N+](=O)[O-])c(N2CCN(C(=O)OCn3c4ccccc4c4ccccc43)CC2)n1Cc1ccccc1 | ROD | syncytia | >9.24 µg/mL |
| CC(C)CC(NS(=O)(=O)c1ccc(Cl)cc1)c1nnc(NS(=O)(=O)c2ccc(Cl)cc2)s1 | ROD | MTT | >59.93 µM |
| Cc1cc(C#N)cc(C)c1Oc1nc(Nc2ccc(NS(=O)(=O)c3ccc([N+](=O)[O-])cc3)cc2)nc2ccsc12 | ROD | MTT | >91.4 µM |
| CCc1nc([N+](=O)[O-])c(N2CCN(C(=O)CSCc3ccc(Cl)cc3)CC2)n1Cc1ccccc1 | ROD | syncytia | >5.81 µg/mL |
| CC1=CC(=O)N(COCC[Si](C)(C)C(C)(C)C)S(=O)(=O)N1COCC[Si](C)(C)C(C)(C)C |  | cytopathic effect / MTT | >400 µg/mL |
| CCn1nc(CC(=O)N/N=C/c2ccccc2)nc1C | ROD | cytopathic effect | >125 µg/mL |
| Cc1cn(Cc2cn(COCCO)nn2)c(=O)[nH]c1=O | ROD | cytopathic effect | >100 µg/mL |
| CCc1nc([N+](=O)[O-])c(N2CCN(C(=O)CCl)CC2)n1Cc1ccccc1 | ROD | syncytia | >0.5 µg/mL |
| Nc1ncnc2c1ncn2Cc1cn(COCCO)nn1 | ROD | cytopathic effect | >100 µg/mL |
| COc1ccc(-n2c(Cc3nc4n(n3)CCCC4)n[nH]c2=S)cc1 | ROD | cytopathic effect | >113 µg/mL |
| C#CCOCN1C(=O)C=C(C)N(COCC#C)S1(=O)=O |  | cytopathic effect / MTT | >400 µg/mL |
| CN1C(=O)[C@]2(C[C@@H]2c2ccccc2)c2cc(Cl)ccc21 | ROD | MTT | >10.24 µg/mL |
| Cc1ccc(S(=O)(=O)NC(CC(C)C)c2nnc(N(S(=O)(=O)c3ccc(Cl)cc3)S(=O)(=O)c3ccc(Cl)cc3)s2)cc1 | ROD | MTT | >4.09 µM |
| Cc1cc(C#N)cc(C)c1Oc1nc(NC2CCN(S(C)(=O)=O)CC2)nc2ccsc12 | ROD | MTT | >22.21 µM |
| CCc1nc([N+](=O)[O-])c(N2CCN(C(=O)CS(=O)(=O)c3cccc4ccccc34)CC2)n1Cc1ccccc1 | ROD | syncytia | >14.5 µg/mL |
| O=S(=O)(O)O.O=S(=O)(O)O.O=S(=O)(O)O.O=S(=O)(O)O.O=S(=O)(O)O.O=S(=O)(O)O.O=S(=O)(O)O.O=S(=O)(O)O.O=S(=O)(O)O.O=S(=O)(O)O.O=S(=O)(O)O.O=S(=O)(O)O.OC[C@H]1O[C@@H]2O[C@H]3[C@H](O)[C@@H](O)[C@@H](O[C@H]4[C@H](O)[C@@H](O)[C@@H](O[C@H]5[C@H](O)[C@@H](O)[C@@H](O[C@H]6[C@H](O)[C@@H](O)[C@@H](O[C@H]7[C@H](O)[C@@H](O)[C@@H](O[C@H]1[C@H](O)[C@H]2O)O[C@@H]7CO)O[C@@H]6CO)O[C@@H]5CO)O[C@@H]4CO)O[C@@H]3CO | ROD | cytopathic effect / MTT | 0.4 µg/mL |
| Cc1nc(Cc2n[nH]c(=S)n2-c2ccccc2)nn1C | ROD | cytopathic effect | >60.8 µg/mL |
| CCc1nc([N+](=O)[O-])c(N2CCN(C(=O)CSCc3ccccc3)CC2)n1Cc1ccccc1 | ROD | syncytia | >6.48 µg/mL |
| Cc1cc(C#N)cc(C)c1Oc1nc(NC2CCN(S(=O)(=O)c3ccc(N)cc3)CC2)nc2ccsc12 | ROD | MTT | 110.5 µM |
| CCc1nc(CC(=O)NN=C(C)C)nn1CC | ROD | cytopathic effect | >98.5 µg/mL |
| CCc1nc([N+](=O)[O-])c(N2CCN(C(=O)CSC)CC2)n1Cc1ccccc1.c1ccc2ccccc2c1 | ROD | syncytia | >3.99 µg/mL |
| O=c1[nH]c(=O)n(Cc2cn(COCCO)nn2)cc1F | ROD | cytopathic effect | >100 µg/mL |
| CCc1nc([N+](=O)[O-])c(N2CCN(C(=O)CCc3c[nH]c4ccccc34)CC2)n1Cc1ccccc1 | ROD | syncytia | >15.4 µg/mL |
| C#CCn1ccc(=O)[nH]c1=O | ROD | cytopathic effect | >100 µg/mL |
| CCn1nc(-c2ccc(Cn3ccc4ccccc43)cc2)nc1C | ROD | cytopathic effect | >0.436 µg/mL |
| O=C1C=CN(COCc2ccccc2)S(=O)(=O)N1COCc1ccccc1 |  | cytopathic effect / MTT | >400 µg/mL |
| CC(=O)OCCOCn1cc(Cn2cc(F)c(=O)[nH]c2=O)nn1 | ROD | cytopathic effect | >100 µg/mL |

Blank or dashed fields: not listed here. Rows are shuffled and stem from different studies.